Compound potency records, mixed from different reports. Data source: NIAID ChemDB in PubChem.

Shared fields: whole-cell or culture tests; organism: HIV-1; endpoint: EC50

ECn: concentration that inhibits the pathogen or its effect by n%. Blank or dashed fields: not listed here. Lines come from different laboratories, so protocols vary. Two numbers with a dash give a range or band.

CCCCC#CCSc1ccccc1OC(C)=O ; cells: MDM ; value: 10 µM
Nc1ccn([C@@H]2CC[C@H](CO)O2)c(=O)n1 ; cells: MT-4 ; strain: IIIB ; value: 3.6 µM
CCCC1(CCC)CC(O)=C(C(CC)c2cccc(NS(=O)(=O)c3cccc4cccnc34)c2)C(=O)O1 ; cells: H9 ; strain: IIIB ; value: 2.1 µM
Cc1nc(COc2ccc(C[C@H](NC(=O)O[C@H]3CO[C@H]4OCC[C@H]43)[C@H](O)CN(CC(C)C)S(=O)(=O)c3ccc4c(c3)OCO4)cc2)cs1 ; cells: MT-4 ; strain: WT ; value: 0.0011 µM
O=C1Nc2ccc(Cl)cc2C(C#Cc2ccccn2)(C2CC2)N1 ; cells: MT-4 ; strain: IIIB ; value: <0.025 µM
Nc1cccc(C[C@H]2C[C@H](Cc3ccccc3)N(C[C@@H](O)C[C@@H](Cc3ccccc3)C(=O)N[C@H]3c4ccccc4C[C@H]3O)C2=O)c1 ; cells: MT-4 + MT4 ; value: 0.32 µM
O=c1[nH]cnc2c1ncn2[C@H]1CC[C@@H](CO)O1 ; cells: CEM ; strain: IIIB ; value: 8.3 µM
CCCC1(CCC)CC(O)=C(C(CC)c2cccc(NS(=O)(=O)c3cn(C)cn3)c2)C(=O)O1 ; cells: H9 ; strain: IIIB ; value: 0.08 µM
COc1ccc2c(c1)N(C(=O)OC(C)C)[C@@H](CSC)C(=S)N2 ; cells: CEM ; strain: IIIB ; value: 0.003 µM
COC(=O)N[C@H](C(=O)N[C@@H](Cc1ccccc1)[C@@H](O)CN(Cc1ccc(-c2ccccn2)cc1)NC(=O)[C@@H](NC(=O)OC)C(C)(C)C)C(C)(C)C ; cells: MT-2 ; strain: MN ; value: <0.003 µM
CCC(C1=C(O)CC(CC(C)C)(CC(C)C)OC1=O)c1cccc(NS(=O)(=O)c2ccc(C#N)cn2)c1 ; cells: H9 ; strain: IIIB ; value: 2.5 µM
Nc1ccn([C@H]2CC[C@@H](CO)S2)c(=O)n1 ; cells: HeLa + HELA CD4+ ; strain: IIIB ; value: 38 µM
Nc1nc2c(ncn2[C@H]2CC[C@@H](CO)O2)c(=O)[nH]1 ; cells: CEM ; strain: IIIB ; value: 1.3 µM
Cc1cn([C@H]2C[C@H](N=[N+]=[N-])[C@@H](CO)O2)c(=O)[nH]c1=O ; cells: PBMC ; strain: A018A ; value: 0.023–0.03 µg/mL
CC(C)c1cc(=O)oc2c3c(c4c(c12)OC(C)(C)C=C4)O[C@@H](C)[C@H](C)C3=O ; cells: CEM + CEM-SS ; strain: IIIB ; value: 1 µM
CC(C)Nc1cccnc1N1CCN(C(=O)c2cc3cc(NS(C)(=O)=O)ccc3[nH]2)CC1 ; cells: CEM ; strain: IIIB ; value: 0.018 µM
Nc1ccn([C@H]2C=C[C@@H](CO)S2)c(=O)n1 ; cells: HeLa + HELA CD4+ ; strain: IIIB ; value: 23 µM
CCCc1cc(=O)oc2c3c(c4c(c12)OC(C)(C)C=C4)O[C@@H](C)[C@H](C)[C@@H]3O ; cells: CEM + CEM-SS ; strain: IIIB ; value: 0.2 µM
CCCC1(CCC)CC(O)=C(C(CC)c2cccc(NS(=O)(=O)c3ccc(C(N)=O)cn3)c2)C(=O)O1 ; cells: H9 ; strain: IIIB ; value: 1.9 µM
O=C1Nc2ccc(Cl)cc2[C@@](C#Cc2ccccn2)(C2CC2)N1 ; cells: MT-4 ; strain: IIIB ; value: <0.025 µM
c1ccc(CNCc2ccc(CN3CCCNCCNCCCNCC3)cc2)nc1 ; strain: HE ; value: 0.008 µg/mL
Cc1cccc(C)c1OCC(=O)N[C@@H](Cc1ccccc1)[C@@H](O)C[C@H](Cc1ccccc1)NC(=O)[C@H](C(C)C)N1CCCNC1=O ; cells: MT-4 ; strain: HXB2 WT ; value: 0.024 µM
O=C(O)C(=O)CC(=O)c1cc(OCc2ccccc2)cc(OCc2ccccc2)c1 ; value: 2 µM
CCn1nc(Cn2cc(C)c(=O)[nH]c2=O)nc1C ; cells: MT-4 ; strain: IIIB ; value: >64 µg/mL
CC(C)c1cc(=O)oc2c3c(c4c(c12)OC(C)(C)C=C4)OC(C)C(C)C3=O ; cells: CEM + CEM-SS ; strain: SKI ; value: 0.4 µM
Nc1ccn([C@H]2CC[C@@H](CO)O2)c(=O)n1 ; cells: MT-4 ; strain: IIIB ; value: 0.06 µM
Nc1ccn([C@H]2CC[C@@H](CO)O2)c(=O)n1 ; cells: HT4 + HT4 LacZ-1 ; strain: 74V (RT-L74V) ; changes: RT-L74V ; value: 3.1 µM
Nc1nc2c(ncn2[C@H]2CO[C@@H](CO)O2)c(=O)[nH]1 ; cells: PBMC ; strain: LAI ; value: 0.105 µM
CCCC1(CCC)CC(O)=C([C@H](CC)c2cccc(NS(=O)(=O)c3ccc(C(F)(F)F)cn3)c2)C(=O)O1 ; cells: H9 ; strain: IIIB ; value: 0.2 µM
Nc1ccn([C@@H]2CC[C@H](CO)S2)c(=O)n1 ; cells: HeLa + HELA CD4+ ; strain: IIIB ; value: >50 µM
O=c1[nH]cnc2c1ncn2[C@@H]1CC[C@H](CO)O1 ; cells: PBMC ; value: >100 µM
CCC(C1=C(O)CC(CCC2CC2)(CCC2CC2)OC1=O)c1cccc(NS(=O)(=O)c2ccc(C#N)cn2)c1 ; cells: H9 ; strain: IIIB ; value: 0.3 µM
CC(C)c1cc(=O)oc2c3c(c4c(c12)OC(C)(C)C=C4)C[C@H](C)[C@@H](C)[C@@H]3O ; cells: CEM + CEM-SS ; strain: IIIB ; value: 0.1 µM
CC(C)OC(=O)c1cc(NC(=S)OC(C)C)ccc1Cl ; value: 0.03 µM
CCCC1(CCC)CC(O)=C(Cc2cccc(NS(=O)(=O)c3cn(C)cn3)c2)C(=O)O1 ; cells: H9 ; strain: IIIB ; value: >3 µM
CC(C)=CCN1Cc2cc(Cl)cc3[nH]c(=S)n(c23)C[C@@H]1C ; cells: MT-4 ; changes: RT-M41L T215Y Y181C ; value: <3 µM
Nc1nc2c(ncn2[C@@H]2C=C[C@H](CO)O2)c(=O)[nH]1 ; cells: CEM ; value: 18.1 µM
CC(C)=CCOc1cc(NC(=S)c2ccoc2C)ccc1Cl ; value: 0.01 µM
Cc1cn([C@H]2C=C[C@@H](CO)O2)c(=O)[nH]c1=O ; cells: ATH8 ; strain: IIIB ; value: 4.1 µM
CC(C)(C)NC(=O)[C@@H]1C[C@@H]2CCCC[C@@H]2CN1C[C@@H](O)[C@H](Cc1ccccc1)NC(=O)[C@H](CC(N)=O)NC(=O)c1ccc2ccccc2n1 ; cells: MT-4 ; strain: HXB2 WT ; value: 0.011 µM
CCCC1(CCC)CC(O)=C(C(CC)c2cccc(NS(=O)(=O)c3ccc(C#N)cn3)c2)C(=O)O1 ; cells: H9 ; strain: IIIB ; value: 0.49 µM
Cc1cccc(C)c1OCC(=O)N[C@@H](Cc1ccccc1)[C@H](O)CN1CC[C@@H](Sc2ccncc2)C[C@H]1C(=O)NC(C)(C)C ; value: 0.002 µM
N#Cc1ccc(S(=O)(=O)Nc2cccc(C(c3c(O)c4c(oc3=O)CCCCCC4)C3CC3)c2)cc1 ; cells: H9 ; strain: IIIB ; value: 1.5 µM
CC(C)CN(C[C@@H](O)[C@H](Cc1ccccc1)NC(=O)O[C@H]1CCOC1)S(=O)(=O)c1ccc(N)cc1 ; cells: MT-4 ; strain: HXB2 WT ; value: 0.052 µM
Nc1nc2c(ncn2[C@@H]2CC[C@H](CO)O2)c(=O)[nH]1 ; cells: CEM ; value: >100 µM
C#C[C@]1(CO)O[C@@H](n2cc(C)c(=O)[nH]c2=O)C[C@@H]1O ; value: 0.22 µg/mL
Nc1ccn([C@@H]2C=C[C@H](CO)S2)c(=O)n1 ; cells: HeLa + HELA CD4+ ; strain: IIIB ; value: 0.8 µM
CCC(c1ccccc1)c1c(O)c2ccccc2oc1=O ; cells: PBMC ; value: 100–500 µM

For reference, 4 entries again:

smiles | cells | strain | changes | value
CCCc1cc(=O)oc2c3c(c4c(c12)OC(C)(C)C=C4)O[C@@H](C)[C@H](C)[C@@H]3O | CEM + CEM-SS | IIIB |  | 0.2 µM
CCn1nc(Cn2cc(C)c(=O)[nH]c2=O)nc1C | MT-4 | IIIB |  | >64 µg/mL
Nc1nc2c(ncn2[C@H]2CC[C@@H](CO)O2)c(=O)[nH]1 | CEM | IIIB |  | 1.3 µM
Cc1cccc(C)c1OCC(=O)N[C@@H](Cc1ccccc1)[C@H](O)CN1CC[C@@H](Sc2ccncc2)C[C@H]1C(=O)NC(C)(C)C |  |  |  | 0.002 µM